Reference: PubChem BioAssay AID504761 (Drosophila RNAi Screening Center, 2011)
The screen tested about 22,000 reagents; shown is an unselected part of those with a known target gene and a result. Of all reagents, 116 (0.52%) were called active. 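Calls depend on retest data that are not deposited; infection was ranked per plate without normalising between plates; the unit of the infection score is not given.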 Raw values vary from plate to plate and are shown uncorrected. Reagents against one gene are numbered here. Names joined by + are all predicted targets of the reagent. No sequences are given here. Not stated in the record: the amount of reagent, the time to read-out.

- Test: 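Fly genes whose silencing reduces dengue virus type 2 infection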 (primary screen)
- Cells: D.Mel-2 cells from Drosophila
- Knock-down reagent: long dsRNA against Drosophila genes
- Conditions: infection with dengue virus type 2; dose and infection time not stated
- Measurement: 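Cells stained for dengue envelope protein and imaged; percent of infected cells per well on duplicate plates, ranked by infection, with stained nuclei counted for cell number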
- Scale: infection score: higher = more virus-infected cells; cell count: higher = more cells in the well
- Hit rule: 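Low infection ranks in the two replicates (chance level up to 0.065) followed by a retest with a 1.5-fold or larger significant decrease, p below 0.05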
- Meaning of the calls: active = confirmed: knock-down lowers infection; inactive = not picked or not confirmed

Gene | reagent | infection score, replicate 1 | infection score, replicate 2 | cell count, replicate 1 | cell count, replicate 2 | Call
Mur11Da | 1 | 1.88 | 0.57 | 6652 | 6545 | inactive
CG12479 | 1 | 6.64 | 1.69 | 5935 | 6381 | inactive
CG5674 | 1 | 0.93 | 16.3 | 5355 | 5867 | inactive
CG5674 | 2 | 10.8 | 11.3 | 6020 | 4650 | inactive
CG15020 | 1 | 1.44 | 3.29 | 6129 | 5653 | inactive
CG33491 (retired record) + CG33496 (retired record) + CG33487 (retired record) + 1 more | 1 | 4.08 | 10.3 | 5930 | 5387 | inactive
ZnT35C | 1 | 1.61 | 3.55 | 6588 | 6654 | inactive
CG15373 | 1 | 8.44 | 5.92 | 4255 | 6947 | inactive
CG6966 | 1 | 13.9 | 32.6 | 4802 | 4763 | inactive
CG6966 | 2 | 3.02 | 3.95 | 6913 | 6296 | inactive
CG8841 | 1 | 12.6 | 14.1 | 5593 | 6145 | inactive
CG5969 | 1 | 13.7 | 16.6 | 6006 | 5171 | inactive
CG5969 | 2 | 10.4 | – | 2792 | 263 | inactive
Ekar | 1 | 1.42 | 0.93 | 6250 | 6017 | inactive
Ekar | 2 | 14.1 | 13.6 | 5515 | 6107 | inactive
CCHa1-R | 1 | 7.65 | 15.6 | 6728 | 4908 | inactive
CCHa1-R | 2 | 11.6 | 33.7 | 4625 | 6221 | inactive
CG32773 (retired record) | 1 | 3.42 | 2.18 | 6412 | 6205 | inactive
mav | 1 | 1.23 | 3.46 | 6336 | 5748 | inactive
trpl | 1 | 20.1 | 14.3 | 6472 | 6157 | inactive
trpl | 2 | 0.57 | 7.91 | 6190 | 6722 | inactive
trpl | 3 | 4.42 | 4.24 | 6656 | 6445 | inactive
CG14960 | 1 | 3.13 | 3.61 | 6381 | 6205 | inactive

Entries listed so far whose gene name begins with T or t (3):
Gene | reagent | infection score, replicate 1 | infection score, replicate 2 | cell count, replicate 1 | cell count, replicate 2 | Call
trpl | 1 | 20.1 | 14.3 | 6472 | 6157 | inactive
trpl | 2 | 0.57 | 7.91 | 6190 | 6722 | inactive
trpl | 3 | 4.42 | 4.24 | 6656 | 6445 | inactive

The list goes on.
Gene | reagent | infection score, replicate 1 | infection score, replicate 2 | cell count, replicate 1 | cell count, replicate 2 | Call
Dus4 | 1 | 10 | 17.8 | 4616 | 6250 | inactive
Drsl5 | 1 | 3.17 | 3.29 | 6333 | 5645 | inactive
Or24a | 1 | 1.06 | 2.24 | 6667 | 6776 | inactive
CG6567 + CG4565 | 1 | 1.19 | 11 | 6651 | 6794 | inactive
sw | 1 | 2.82 | 5.24 | 5598 | 5630 | inactive
cN-IIIB | 1 | 17.9 | 28.9 | 6215 | 5753 | inactive
CG12194 | 1 | 8.15 | 4.85 | 6257 | 6766 | inactive
CG12194 | 2 | 8.26 | 16.9 | 2844 | 4295 | inactive
Hn | 1 | 8.42 | 4.16 | 6425 | 6557 | inactive
nord | 1 | 9.59 | 25.2 | 6601 | 4707 | inactive
nord | 2 | 7.07 | 7 | 6250 | 5782 | inactive
nito | 1 | 19.4 | 14.4 | 4540 | 5529 | inactive
sky | 1 | 42.6 | 46 | 5426 | 3889 | inactive
sky | 2 | 28.8 | 14.8 | 6049 | 1265 | inactive
sky | 3 | 3.61 | 2.16 | 5043 | 6382 | inactive
CG4053 | 1 | 4.21 | 15.8 | 6813 | 5532 | inactive
CG4053 | 2 | 18.5 | 17.2 | 5916 | 6307 | inactive
Kap-alpha3 | 1 | 1.19 | 2.66 | 2024 | 1619 | inactive
CG6847 | 1 | 0.2 | 0.26 | 6623 | 6886 | inactive
CG6847 | 2 | 0.99 | 1.43 | 6438 | 6703 | active
klu | 1 | 2.65 | 2.57 | 5877 | 6413 | inactive
klu | 2 | 8.06 | 9.17 | 4590 | 6487 | inactive
CG31683 + CG18858 | 1 | 4.3 | 1.88 | 6216 | 6698 | inactive
CG44098 | 1 | 1.59 | 8.04 | 6864 | 7078 | inactive
CG44098 | 2 | 2.21 | 2.95 | 6620 | 6739 | inactive
CG44098 | 3 | 6.54 | 9.5 | 5685 | 5514 | inactive
CG44098 | 4 | 4.28 | 5.92 | 5905 | 6287 | inactive
CG8892 | 1 | 4.54 | 1.84 | 5531 | 6075 | inactive
CG30279 (retired record) | 1 | 3.28 | 3.89 | 5848 | 6452 | inactive
CG30279 (retired record) | 2 | 12.8 | 16.8 | 6406 | 6585 | inactive
be | 1 | 6.57 | 17.9 | 6548 | 4379 | inactive
be | 2 | 10.9 | 12.4 | 5877 | 6309 | inactive
be | 3 | 7.54 | 8.78 | 4272 | 5718 | inactive
Ost48 | 1 | 1.77 | 1.7 | 6391 | 6604 | inactive
bcd | 1 | 3.92 | 5.78 | 6452 | 5913 | inactive
bcd | 2 | 4.02 | 6.77 | 6463 | 6926 | inactive
